The text below walks through data of patent publication US20240239861A1, “GLUCAGON-RECEPTOR SELECTIVE POLYPEPTIDES AND METHODS OF USE THEREOF” (i2O Therapeutics, Inc., priority 2016, published 2024).

This data set can be described thus: Body weight change in DIO Long Evans rats after 13 days continuous dosing by osmotic pump.

Where a SMILES comes first, the peptide text is derived from it. [ ]: non-standard residue; d: D form. Aib = CC(C)(N)C(=O)O

For `CC(C)C[C@H](NC(=O)[C@H](Cc1ccc(O)cc1)NC(=O)[C@H](CCCCN)NC(=O)[C@H](CO)NC(=O)[C@H](Cc1ccc(O)cc1)NC(=O)[C@H](CC(=O)O)NC(=O)[C@H](CO)NC(=O)[C@@H](NC(=O)[C@H](Cc1ccccc1)NC(=O)[C@@H](NC(=O)CNC(=O)[C@H](Cc1c[nH]cn1)NC(=O)[C@H](CO)NC(=O)[C@@H](N)Cc1ccc(O)cc1)[C@@H](C)O)[C@@H](C)O)C(=O)N[C@@H](CC(=O)O)C(=O)NC(C)(C)C(=O)N[C@@H](CCCCN)C(=O)N[C@@H](Cc1ccc(O)cc1)C(=O)N[C@@H](C)C(=O)N[C@@H](CCC(N)=O)C(=O)N[C@@H](CCC(=O)O)C(=O)N[C@@H](Cc1ccccc1)C(=O)N[C@H](C(=O)NC(C)(C)C(=O)N[C@@H](Cc1c[nH]c2ccccc12)C(=O)N[C@@H](CC(C)C)C(=O)N[C@@H](CCC(=O)O)C(=O)N[C@@H](CC(=O)O)C(=O)N[C@@H](CCC(=O)O)C(=O)N1CCC[C@H]1C(=O)N[C@@H](CO)C(=O)N[C@@H](CO)C(=O)NCC(=O)N[C@@H](C)C(=O)N1CCC[C@H]1C(=O)N1CCC[C@H]1C(=O)N1CCC[C@H]1C(=O)N[C@@H](CO)C(=O)O)C(C)C` [Compound A1] (H-YSHGTFTSDYSKYLD[Aib]KYAQEFV[Aib]WLEDEPSSGAPPPS-OH; N-terminus assumed), the “Hill slope of weight loss dose response” value runs as follows: (fit of each agent (FIG. 8)) −1.26; (shared fit (FIG. 9)) −1.43.

On to `CC(C)C[C@H](NC(=O)[C@H](Cc1ccc(O)cc1)NC(=O)[C@H](CCCCN)NC(=O)[C@H](CO)NC(=O)[C@H](Cc1ccc(O)cc1)NC(=O)[C@H](CC(=O)O)NC(=O)[C@H](CO)NC(=O)[C@@H](NC(=O)[C@H](Cc1ccccc1)NC(=O)[C@@H](NC(=O)CNC(=O)[C@H](Cc1c[nH]cn1)NC(=O)[C@H](CO)NC(=O)[C@@H](N)Cc1ccc(O)cc1)[C@@H](C)O)[C@@H](C)O)C(=O)N[C@@H](CC(=O)O)C(=O)NC(C)(C)C(=O)N[C@@H](CCCCN)C(=O)N[C@@H](CO)C(=O)N[C@@H](C)C(=O)N[C@@H](CCC(N)=O)C(=O)N[C@@H](CCC(=O)O)C(=O)N[C@@H](Cc1ccccc1)C(=O)N[C@H](C(=O)NC(C)(C)C(=O)N[C@@H](Cc1c[nH]c2ccccc12)C(=O)N[C@@H](CC(C)C)C(=O)N[C@@H](CCC(=O)O)C(=O)N[C@@H](CC(=O)O)C(=O)N[C@@H](CCC(=O)O)C(=O)N1CCC[C@H]1C(=O)N[C@@H](CO)C(=O)N[C@@H](CO)C(=O)NCC(=O)N[C@@H](C)C(=O)N1CCC[C@H]1C(=O)N1CCC[C@H]1C(=O)N1CCC[C@H]1C(=O)N[C@@H](CO)C(=O)O)C(C)C` [Compound A2], for which the “Hill slope of weight loss dose response” value (shared fit (FIG. 9)) is −1.25.

With `CC(C)C[C@H](NC(=O)[C@H](Cc1ccc(O)cc1)NC(=O)[C@H](CCCCN)NC(=O)[C@H](CO)NC(=O)[C@H](Cc1ccc(O)cc1)NC(=O)[C@H](CC(=O)O)NC(=O)[C@H](CO)NC(=O)[C@@H](NC(=O)[C@H](Cc1ccccc1)NC(=O)[C@@H](NC(=O)CNC(=O)[C@H](CCC(N)=O)NC(=O)[C@H](CO)NC(=O)[C@@H](N)Cc1ccc(O)cc1)[C@@H](C)O)[C@@H](C)O)C(=O)N[C@@H](CC(=O)O)C(=O)N[C@@H](C)C(=O)N[C@@H](C)C(=O)N[C@@H](CCCNC(=N)N)C(=O)N[C@@H](C)C(=O)N[C@@H](CCC(N)=O)C(=O)N[C@@H](CCC(=O)O)C(=O)N[C@@H](Cc1ccccc1)C(=O)N[C@H](C(=O)N[C@@H](CCCCN)C(=O)N[C@@H](Cc1c[nH]c2ccccc12)C(=O)N[C@@H](CC(C)C)C(=O)N[C@@H](CCC(=O)O)C(=O)N[C@@H](CC(=O)O)C(=O)N[C@@H](CCC(=O)O)C(=O)N1CCC[C@H]1C(=O)N[C@@H](CCCCN)C(=O)N[C@@H](CO)C(=O)N[C@@H](CCCCN)C(=O)N[C@@H](CO)C(=O)N1CCC[C@H]1C(=O)N1CCC[C@H]1C(=O)N1CCC[C@H]1C(=O)N[C@@H](CO)C(N)=O)C(C)C` [Compound A3] (H-YSQGTFTSDYSKYLDAARAQEFVKWLEDEPKSKSPPPS-NH2; N-terminus assumed), the “Hill slope of weight loss dose response” value (shared fit (FIG. 9)) is −1.12.
